A mixed list of measured activities; the numbers were collected in NIAID ChemDB.

All rows: tests in culture; species: Mycobacterium tuberculosis

MIC50, MIC90 and the like: level of inhibition, or share of isolates inhibited. ECn is the concentration giving n% inhibition of infection, replication or growth. Neighbouring rows are from separate reports. Percent inhibition refers to the dose given; in toxicity tests it is the harm to the cells. MIC bound: limit read from a one-dose screen. An empty or dashed field is not shown.

SMILES,endpoint,read by,strain,cell line,tested at,setting,value
Cc1ccccc1-c1nnc(SCC(=O)c2ccccc2)o1,inhibition,BACTEC,H37Rv,,6.25 µg/mL,,19%
COC(=O)C1=C(C)N(c2ccccc2)C(C)=C(C(=O)OC)C1c1ccc(-c2ccc(F)c(Cl)c2)o1,inhibition,BACTEC / radiometric,H37Rv,,6.25 µg/mL,,53%
N#C/C(=C\c1ccc(Br)cc1)n1nnc2ccccc21,EC50,,,,,,<12.5 µg/mL
O=C(CCC(=O)Nc1cccc(Cl)c1)Nc1cccc(Cl)c1,MIC,,H37Rv,,,,500 µM
Cc1ccc(/C=C(\C#N)n2nc3ccccc3n2)cc1,EC50,,,,,,>12.5 µg/mL
O=C(Nc1ccc(F)cc1)c1cccc2nc3ccccc3nc12,MIC,,H37Rv 27294,,,,0.19 µg/mL
O=C(N/N=C/c1c[nH]c2ccccc12)C1CCCO1,MIC bound,BACTEC,H37Rv,,,,>12.5 µg/mL
CC(=O)N1N=C(c2ccc(NC(=O)C(c3ccc(Cl)cc3)C(C)C)cc2)CC1c1ccccc1Cl,inhibition,BACTEC,H37Rv,,6.25 µg/mL,,0%
CCOC(=O)C1=C(C)N(c2ccc(Br)cc2)C(C)=C(C(=O)OCC)C1c1ccc(-c2ccc(F)c(Cl)c2)o1,inhibition,BACTEC / radiometric,H37Rv,,6.25 µg/mL,,6%
CC1=NN(c2ccc(/C=C/c3ccc(NC(=O)Nc4ccc(/C=C/c5ccc(N6N=C(C)C(N=Nc7ccccc7C(=O)O)C6=O)cc5S(=O)(=O)[O-])c(S(=O)(=O)[O-])c4)cc3S(=O)(=O)[O-])c(S(=O)(=O)[O-])c2)C(=O)C1N=Nc1ccccc1C(=O)O.[Na+].[Na+].[Na+].[Na+],MIC,BACTEC,H37Rv,,,,≥12.8 µg/mL
OO,EC50,colony count,H37Rv,,,,>500 µM
COC(=O)c1ccc2[nH]c3ccccc3c2c1,MIC,,H37Rv,,,,>128 µg/mL
Oc1ccccc1-c1nnc(SCC2(c3ccc(Br)cc3)OCCO2)o1,inhibition,BACTEC,H37Rv,,6.25 µg/mL,,13%
C[C@]1(COc2ccc(C3CCN(Cc4csc(-c5ccc(C(F)(F)F)cc5)n4)CC3)cc2)Cn2cc([N+](=O)[O-])nc2O1,MIC,,H37Rv,,,,0.006 µg/mL
O=C(Nc1ccc([N+](=O)[O-])cc1)C(=O)Nc1ccc([N+](=O)[O-])cc1,MIC,,H37Rv,,,,37 µM
CCOC(=O)C1=C(C)N(c2cccc(Cl)c2)C(C)=C(C(=O)OCC)C1c1ccc(-c2ccc(F)c(Cl)c2)o1,inhibition,BACTEC / radiometric,H37Rv,,6.25 µg/mL,,4%
O=C(Nc1ccc(F)cc1)c1cc(Br)ccc1O,MIC,,CNCTC MY331/88,,,,8 µM
O=C(Nc1cccc(Cl)c1)c1cccc2nc3ccccc3nc12,MIC,,H37Rv 27294,,,,0.39 µg/mL
CCCCCCCCCCC[C@@H]1CCC[C@@H](C)N1,MIC,,PAS-R,,,,6.4 µg/mL
C[C@]1(COc2ccc(N3CCC(CCOCc4ccc(Cl)cc4)CC3)cc2)Cn2cc([N+](=O)[O-])nc2O1,MIC,,H37Rv,,,,0.024 µg/mL
NNC(=O)c1ccncc1,MIC,,H37Ra,,,,0.1 µg/mL
COc1cc2nc(C)[n+]3[nH]c(=O)ccc3c2cc1OC,MIC bound,BACTEC,H37Rv,,,,>12.5 µg/mL
CC(=O)N1N=C(c2ccc(NC(=O)C(c3ccc(Cl)cc3)C(C)C)cc2)CC1c1ccccc1[N+](=O)[O-],inhibition,BACTEC,H37Rv,,6.25 µg/mL,,10%
O=C(Nc1cccc(Cl)c1)c1cc(Br)ccc1O,MIC,,CNCTC MY331/88,,,,8 µM
CCOC(=O)CCN1C(=O)c2ccc(NC(=O)C(=O)O)cc2S1(=O)=O,inhibition,BACTEC,H37Rv,,12.5 µg/mL,,0%
COc1c(N2CCN(S(=O)(=O)c3nnc(N)s3)C(C)C2)c(F)cc2c(=O)c(C(=O)O)cn(C3CC3)c12,MIC,,H37Rv,,,,10 µg/mL
C[C@]1(COc2ccc(N3CCN(Cc4cc5ccc(Cl)cc5o4)CC3)cc2)Cn2cc([N+](=O)[O-])nc2O1,MIC,,H37Rv,,,,0.006 µg/mL
c1ccc(P(CCc2ccccn2)c2ccccc2)cc1,MIC99,broth dilution / visual reading,H37Rv,,,14 d,160 µM
Cc1cc(O)c2c(c1)C(=O)C(c1c(C)cc3c(c1O)C(=O)C1OC1C3=O)=CC2=O,MIC,,ETA-R,,,,0.8 µg/mL
CCC(C)c1ccc(NC(=O)CCC(=O)Nc2ccc(C(C)CC)cc2)cc1,MIC,,H37Rv,,,,500 µM
COC(=O)c1cc(N)nn1C,MIC bound,resazurin,H37Rv,,,,>6.25 µg/mL
COc1c(N2CCNC(C)C2)c(F)cc2c(=O)c(C(=O)O)cn(C3CC3)c12,MIC,,H37Rv,,,,0.125 µg/mL
CCCc1c(O)ccc(O)c1CO,MIC,resazurin,H37Rv,,,,25 µg/mL
CCOC(=O)C1=C(C)N(c2ccc(C)cc2)C(C)=C(C(=O)OCC)C1c1ccc(-c2ccc(F)c(Cl)c2)o1,inhibition,BACTEC / radiometric,H37Rv,,6.25 µg/mL,,17%
COc1cc(-c2nnc(SCC(=O)c3ccccc3)o2)cc(OC)c1OC,inhibition,BACTEC,H37Rv,,6.25 µg/mL,,19%
CCn1cc(C(=O)O)c(=O)c2cc(F)c(N3CCN(S(=O)(=O)c4nnc(N)s4)CC3)cc21,MIC,,H37Rv,,,,10 µg/mL
O=C1NC(c2ccc([N+](=O)[O-])cc2)=CC(c2cccc(Oc3ccccc3)c2)N1,inhibition,resazurin,H37Rv,,6.25 µg/mL,,51%
O=c1c2ccccc2nc2[nH][nH]c(=S)n12,MIC bound,resazurin,H37Rv,,,,>6.25 µg/mL
N#C/C(=C\c1ccc(F)cc1)n1nnc2ccccc21,EC50,,,,,,>12.5 µg/mL
O=C(Nc1ccccc1)c1ccccc1O,MIC,,CNCTC MY331/88,,,,62 µM
N#C/C(=C\c1ccc(Cl)cc1)n1nnc2ccccc21,inhibition,,,,12.5 µg/mL,,86%
CC(C)C(C(=O)Nc1ccc(C2=CC(c3c(Cl)cccc3Cl)C(C#N)=C(N)O2)cc1)c1ccc(Cl)cc1,inhibition,BACTEC,H37Rv,,6.25 µg/mL,,0%
c1ccc(-c2nnc(SCC3(c4ccccc4)OCCO3)o2)cc1,inhibition,BACTEC,H37Rv,,6.25 µg/mL,,82%
CC1=C\[C@H](O)CC(=O)Cc2nc(co2)C(=O)N2CCC=C2C(=O)O[C@@H](C(C)C)[C@@H](C)/C=C/C(=O)NC\C=C\1,MIC bound,BACTEC,H37Rv,,,,>12.8 µg/mL
C[C@]1(COc2ccc(N3CCC(COCc4ccccc4Cl)CC3)cc2)Cn2cc([N+](=O)[O-])nc2O1,MIC,,H37Rv,,,,0.05 µg/mL
NC1=NC(c2cccc(Oc3ccccc3)c2)C=C(c2ccc([N+](=O)[O-])cc2)N1,MIC,resazurin,H37Rv,,,,48.93 µg/mL
Cc1oc2c(C)c3oc(=O)cc(C)c3cc2c1CCl,MIC,BACTEC,H37Rv,VERO,,,12.5 µg/mL
CCCCCC(CC)OC(=O)c1cnc(Cl)cn1,MIC,,ATCC 35828,,,,0.25 µg/mL
Oc1cc(Cl)ccc1Oc1ccc(Cl)cc1Cl,MIC,,M290 (inhA promoter),,,,60 µM
N#C/C(=C\c1ccccc1)n1nc2ccccc2n1,inhibition,,,,12.5 µg/mL,,76%
C[C@]1(COc2ccc(N3CCC(Cc4ccc(OC(F)(F)F)cc4)CC3)nc2)Cn2cc([N+](=O)[O-])nc2O1,MIC,,H37Rv,,,,0.006 µg/mL
O=C1COc2ccccc2N1,inhibition,BACTEC,H37Rv,,12.5 µg/mL,,6%
CC(=O)Nc1nnc(S(=O)(=O)N2C(C)CN(c3c(F)c(NC(C)=O)c4c(=O)c(C(=O)O)cn(C5CC5)c4c3F)CC2C)s1,MIC,,H37Rv,,,,10 µg/mL
C[C@]1(COc2ccc(N3CCC(Cc4ccc(Cl)cc4)CC3)cc2)Cn2cc([N+](=O)[O-])nc2O1,MIC,,H37Rv,,,,0.024 µg/mL
O=C1CSC(c2ccc([N+](=O)[O-])cc2)N1c1nc(-c2ccc3c(c2)CCCC3)cs1,MIC bound,BACTEC,H37Rv,,,,>12.5 µg/mL
COC(=O)C1=C(C)N(c2ccc([N+](=O)[O-])cc2)C(C)=C(C(=O)OC)C1c1ccc(-c2ccc(F)c(Cl)c2)o1,inhibition,BACTEC / radiometric,H37Rv,,6.25 µg/mL,,33%
CCCCc1ccc(NC(=O)CCC(=O)Nc2ccc(CCCC)cc2)cc1,MIC,,H37Rv,,,,500 µM
Cc1ccc(NCCN(C)C)c2c(=O)c3cc(O)ccc3oc12,inhibition,BACTEC,H37Rv,,12.5 µg/mL,,98%
COc1cc(C2CC(c3ccc(NC(=O)C(c4ccc(Cl)cc4)C(C)C)cc3)=NN2C(C)=O)cc(OC)c1OC,inhibition,BACTEC,H37Rv,,6.25 µg/mL,,0%
O=C(N/N=C/c1cccc(C(F)(F)F)c1)c1ccncc1,MBC,,Isoniazid-resistant,,,,>3.2 µg/mL
CCCCCCCCC(CC)OC(=O)c1cnc(Cl)cn1,MIC,,ATCC 35828,,,,1 µg/mL
COC1OC(CO)C(N=C(C)C)C1O,MIC bound,BACTEC,H37Rv,,,,>12.5 µg/mL
O=C(Nc1ccccc1)c1cc(Cl)ccc1O,MIC,,CNCTC MY331/88,,,,31 µM
CCc1ccc(NCc2cc(OC)c(OC)c(OC)c2)cc1,inhibition,BACTEC,H37Rv,,12.8 µg/mL,,3%
Cc1cccc(NC(=O)c2cccc3nc4ccccc4nc23)c1C,MIC,,H37Rv 27294,,,,0.39 µg/mL
NC(=S)N/N=C\c1ccccc1,MIC,,H37Ra,,,,0.179 µg/mL
CCN(CC)CCNc1ccc(C)c2oc3ccc(O)cc3c(=O)c12,MIC,,RMP-R,,,,12.5 µg/mL
COC(=O)C1=C(C)N(c2ccc(C)cc2)C(C)=C(C(=O)OC)C1c1ccc(-c2ccc(F)c(Cl)c2)o1,inhibition,BACTEC / radiometric,H37Rv,,6.25 µg/mL,,9%
N#C/C(=C\c1ccc(C(=O)O)cc1)n1nnc2ccccc21,EC50,,,,,,>12.5 µg/mL
COc1ccc(C2CC(c3ccc(NC(=O)C(c4ccc(Cl)cc4)C(C)C)cc3)=NN2C(C)=O)cc1,inhibition,BACTEC,H37Rv,,6.25 µg/mL,,0%
CN[C@@H]1[C@H](O[C@H]2[C@H](O[C@H]3[C@H](O)[C@@H](O)[C@H](N=C(N)N)[C@@H](O)[C@@H]3N=C(N)N)O[C@@H](C)[C@]2(O)C=O)O[C@@H](CO)[C@H](O)[C@H]1O,EC50,resazurin,ATCC 27294,,,,6.25 µg/mL
CCCCOC(=O)C1C2CCC(O2)C1C(N)=O,inhibition,BACTEC,H37Rv,,12.5 µg/mL,,11%
N#C/C(=C/c1ccc(C(=O)O)cc1)n1nc2ccccc2n1,inhibition,,,,12.5 µg/mL,,6%
CCCCCCCC(OC(=O)c1cnc(Cl)cn1)C(C)(C)C,MIC,,ATCC 27294,,,,4 µg/mL
CCC1CN2CCc3cc(OC)c(OC)cc3[C@@H]2C[C@@H]1C[C@@H]1c2cc(OC)c(OC)cc2CCN1C(=O)[C@H](Cc1c[nH]c2ccccc12)NC(=O)OC(C)(C)C,MIC bound,BACTEC,H37Rv,,,,>12.5 µg/mL
O=C1NC(c2ccc(F)cc2)=CC(c2cccc(Oc3ccccc3)c2)N1,inhibition,resazurin,H37Rv,,6.25 µg/mL,,89%
COc1cc(C2CC(c3ccc(NC(=O)C(c4ccc(Cl)cc4)C(C)C)cc3)=NN2C(C)=O)ccc1O,inhibition,BACTEC,H37Rv,,6.25 µg/mL,,26%
O=C(Nc1ccc(Br)cc1)c1ccccc1O,MIC,,CNCTC MY331/88,,,,31 µM
O=C(CCC(=O)Nc1ccccc1)Nc1ccccc1,MIC,,H37Rv,,,,500 µM
CC(=O)N1N=C(c2ccc(NC(=O)C(c3ccc(Cl)cc3)C(C)C)cc2)CC1c1ccc(Cl)cc1,inhibition,BACTEC,H37Rv,,6.25 µg/mL,,0%
Cc1nc(N)c2ncn([C@@H]3O[C@H](CO)[C@@H](O)[C@H]3O)c2n1,MIC,,SRICK1 (AK-deficient),,,,>50 µg/mL
COc1cc(C2C=C(c3ccc(NC(=O)C(c4ccc(Cl)cc4)C(C)C)cc3)OC(N)=C2C#N)ccc1O,inhibition,BACTEC,H37Rv,,6.25 µg/mL,,11%
OC(C1CCCCN1)C1CC(c2ccccc2)Nc2c(Cl)cc(Cl)cc21,MIC,,H37Rv,VERO,,,6.25 µg/mL
CCC1CN(c2c(F)cc3c(=O)c(C(=O)O)cn(C4CC4)c3c2OC)CCN1,MIC,,TN1625 (A90V),,,,0.7 µg/mL
NC1=NC(c2cccc(Oc3ccccc3)c2)C=C(c2ccc(Cl)cc2Cl)N1,MIC,resazurin,H37Rv,,,,9.094 µg/mL
NC(=O)c1c(Cl)nsc1Cl,MIC bound,BACTEC,H37Rv,,,,>12.5 µg/mL
CC(C)COC(=O)c1cnccn1,MIC,,ATCC 35828,,,,4 µg/mL
O=C(Nc1cccc(Br)c1)c1cccc2nc3ccccc3nc12,MIC,,H37Rv 27294,,,,0.19 µg/mL

Again, the opening 9 rows:

SMILES	endpoint	read by	strain	cell line	tested at	setting	value
Cc1ccccc1-c1nnc(SCC(=O)c2ccccc2)o1	inhibition	BACTEC	H37Rv		6.25 µg/mL		19%
COC(=O)C1=C(C)N(c2ccccc2)C(C)=C(C(=O)OC)C1c1ccc(-c2ccc(F)c(Cl)c2)o1	inhibition	BACTEC / radiometric	H37Rv		6.25 µg/mL		53%
N#C/C(=C\c1ccc(Br)cc1)n1nnc2ccccc21	EC50						<12.5 µg/mL
O=C(CCC(=O)Nc1cccc(Cl)c1)Nc1cccc(Cl)c1	MIC		H37Rv				500 µM
Cc1ccc(/C=C(\C#N)n2nc3ccccc3n2)cc1	EC50						>12.5 µg/mL
O=C(Nc1ccc(F)cc1)c1cccc2nc3ccccc3nc12	MIC		H37Rv 27294				0.19 µg/mL
O=C(N/N=C/c1c[nH]c2ccccc12)C1CCCO1	MIC bound	BACTEC	H37Rv				>12.5 µg/mL
CC(=O)N1N=C(c2ccc(NC(=O)C(c3ccc(Cl)cc3)C(C)C)cc2)CC1c1ccccc1Cl	inhibition	BACTEC	H37Rv		6.25 µg/mL		0%
CCOC(=O)C1=C(C)N(c2ccc(Br)cc2)C(C)=C(C(=O)OCC)C1c1ccc(-c2ccc(F)c(Cl)c2)o1	inhibition	BACTEC / radiometric	H37Rv		6.25 µg/mL		6%